Test results published in ChEMBL document CHEMBL4033629, “Synthesis, biological evaluation and molecular modeling of 2-Hydroxyisoquinoline-1,3-dione analogues as inhibitors of HIV reverse transcriptase associated ribonuclease H and polymerase” (Eur J Med Chem, 2017).

Test system: Human immunodeficiency virus
Test: Selectivity ratio of IC50 for full length HIV reverse transcriptase polymerase activity to IC50 for full length HIV RT-RNase H activity

| SMILES | Ratio IC50 |
| --- | --- |
| O=C(Nc1ccc2c(c1)CC(=O)N(O)C2=O)c1ccccc1 | 2 to 7 |
| COc1cc2c(cc1-c1ccc(F)cc1)CC(=O)N(O)C2=O | < 6 |
| O=C1Cc2c(Cc3ccc(C(F)(F)F)cc3)cccc2C(=O)N1O | 12 |
| COc1cc2c(cc1-c1ccco1)CC(=O)N(O)C2=O | < 6 |
| O=C(Cc1ccccc1)Nc1ccc2c(c1)CC(=O)N(O)C2=O | 7 |
| COc1cc2c(cc1-c1ccccc1)CC(=O)N(O)C2=O | < 6 |
| COc1cc2c(cc1-c1ccc(F)cc1F)CC(=O)N(O)C2=O | < 6 |
| O=C(Nc1ccc2c(c1)CC(=O)N(O)C2=O)c1ccc(F)cc1 | 2 to 7 |
| O=C1Cc2c(Cc3ccc(F)cc3F)cccc2C(=O)N1O | 12 |
| O=C(Cc1ccc(F)cc1)Nc1ccc2c(c1)CC(=O)N(O)C2=O | 2 to 7 |
| Cc1ccc(Cc2cccc3c2CC(=O)N(O)C3=O)cc1 | 12 |
| O=C1Cc2c(Cc3ccc(Br)cc3)cccc2C(=O)N1O | 12 |
